Anti-infective test results gathered from many reports (values: NIAID ChemDB through PubChem).

All rows: tests on isolated targets; agent: Hepatitis C virus

An empty or dashed field is not shown. Rows are shuffled and stem from different studies. a–b is a range or a potency band. Inhibition is in % at the dose shown (toxicity tests: loss of growth or viability). ICn: concentration for n% inhibition.

COc1ccc(-c2ccccc2)c(-c2ccc3cc(-c4nc5cc(C(=O)O)ccc5n4C4CCCCC4)ccc3n2)c1 ; protein: NS5B polymerase ; read-out: inhibition ; dose: 100 µM ; value: 99.74%
O=C(Nc1ccccc1-c1nc(C(=O)O)c(O)c(=O)[nH]1)NS(=O)(=O)c1ccccc1Cl ; protein: HCV polymerase ; read-out: IC50 ; value: <100 µM
Cc1cc(-c2nc3cc(C(=O)O)ccc3n2C2CCCCC2)cc2ccc(-c3ccccc3-c3ccccc3)nc12 ; protein: NS5B polymerase ; read-out: inhibition ; dose: 33 µM ; value: 93.32%
CNC(=O)c1c(-c2ccc(F)cc2)oc2cc(N3CCSCC3)c(OC(C)C)cc12 ; protein: Nonstructural protein 5B ; read-out: IC50 ; value: ≤0.5 µM
NC(=O)[C@H](CO)NC(=O)c1ccc2cc(-c3nc4cc(C(=O)O)ccc4n3C3CCCCC3)ccc2n1 ; protein: NS5B polymerase ; read-out: inhibition ; dose: 33 µM ; value: 42.63%
CNC(=O)c1c(-c2ccc(F)cc2)oc2cc(N3CCOCC3)c(OCc3cnc[nH]3)cc12 ; protein: Nonstructural protein 5B ; read-out: IC50 ; value: ≤0.5 µM
O=C(O)c1cc2nc(-c3ccc(F)cc3)cc(-c3ccc(Oc4ccccc4)cc3)n2n1 ; protein: RNA-dependent RNA polymerase ; read-out: IC50 ; value: >10 µM
COc1ccc(-c2cccc([N+](=O)[O-])c2)c(-c2ccc3cc(-c4nc5cc(C(=O)O)ccc5n4C4CCCCC4)ccc3n2)c1 ; protein: NS5B polymerase ; read-out: inhibition ; dose: 100 µM ; value: 98.26%
CCc1cc2c(C(=O)NC)c(-c3ccc(F)cc3)oc2cc1N(CCF)S(C)(=O)=O ; protein: Nonstructural protein 5B ; read-out: IC50 ; value: ≤0.5 µM
O=S1(=O)CCC(c2c(-c3ccc(OCc4ccccc4)cc3)cnc3c(-c4nn[nH]n4)cnn23)CC1 ; protein: RNA-dependent RNA polymerase ; read-out: IC50 ; value: >10 µM
O=C(NCCCc1ccccc1)Nc1cscc1-c1nc(C(=O)O)c(O)c(=O)[nH]1 ; protein: HCV polymerase ; read-out: IC50 ; value: <25 µM
O=C(O)c1cnn2c(C3CCCCC3)c(-c3ccc(F)cc3F)cnc12 ; protein: RNA-dependent RNA polymerase ; read-out: IC50 ; value: 1–10 µM
O=C(Nc1ccsc1-c1nc(C(=O)O)c(O)c(=O)[nH]1)NC(c1ccccc1)c1ccccc1 ; protein: HCV polymerase ; read-out: IC50 ; value: <25 µM
Cc1noc(C)c1-c1ccc(-c2nc3cc(C(=O)O)[nH]n3c(=O)c2C2CCCCC2)cc1 ; protein: RNA-dependent RNA polymerase ; read-out: IC50 ; value: 1–10 µM
CNC(=O)c1c(-c2ccc(F)cc2)oc2cc(N3CCOCC3)c(OCC3CC3)cc12 ; protein: Nonstructural protein 5B ; read-out: IC50 ; value: ≤0.5 µM
COc1ccc(-c2ccc(Cl)cc2)c(-c2ccc3cc(-c4nc5cc(C(=O)O)ccc5n4C4CC56CCC5CCC46)ccc3n2)c1 ; protein: NS5B polymerase ; read-out: inhibition ; dose: 33 µM ; value: 101%
C#Cc1cccc(-c2nc(C(=O)O)c(O)c(=O)[nH]2)c1 ; protein: HCV polymerase ; read-out: IC50 ; value: <100 µM
NNc1cc(-c2ccccc2)nc2ccc(-c3nc4cc(C(=O)O)ccc4n3C3CCCCC3)cc12 ; protein: NS5B polymerase ; read-out: inhibition ; dose: 33 µM ; value: 92.92%
O=C(Nc1ccsc1-c1nc(C(=O)O)c(O)c(=O)[nH]1)OCc1cc2ccccc2s1 ; protein: HCV polymerase ; read-out: IC50 ; value: <25 µM
COc1ccccc1-c1cc(-c2ccccc2Cl)n2nc(C(=O)O)cc2n1 ; protein: RNA-dependent RNA polymerase ; read-out: IC50 ; value: >10 µM
O=C(O)c1nc(-c2ccccc2NS(=O)(=O)c2ccc([N+](=O)[O-])cc2)[nH]c(=O)c1O ; protein: HCV polymerase ; read-out: IC50 ; value: <100 µM
O=C(O)c1cc2nc(-c3cccc(Cl)c3)cc(-c3ccc(Oc4ccccc4)cc3)n2n1 ; protein: RNA-dependent RNA polymerase ; read-out: IC50 ; value: 1–10 µM
O=C(O)c1ccc2c(c1)nc(-c1ccc3nc(-c4ccccc4-c4ccc(Cl)cc4)c(-c4ccccc4)cc3c1)n2C1CCCCC1 ; protein: NS5B polymerase ; read-out: inhibition ; dose: 100 µM ; value: 97.75%
CCOC(=O)c1cc2nc(-c3ccc(F)cc3)cc(-c3ccc(F)cc3)n2n1 ; protein: RNA-dependent RNA polymerase ; read-out: IC50 ; value: >10 µM
O=C(O)c1ccc2c(c1)nc(-c1ccc3nc(-c4ccccc4)cc(Oc4ccc5ccc(O)cc5c4)c3c1)n2C1CCCCC1 ; protein: NS5B polymerase ; read-out: inhibition ; dose: 33 µM ; value: 100%
COc1ccccc1-c1cc(-c2ccc(F)cc2)nc2cc(C(=O)O)nn12 ; protein: RNA-dependent RNA polymerase ; read-out: IC50 ; value: >10 µM
O=C(NCCc1ccccc1Cl)Nc1ccsc1-c1nc(C(=O)O)c(O)c(=O)[nH]1 ; protein: HCV polymerase ; read-out: IC50 ; value: <25 µM

3 of the rows above, restated:

| SMILES | protein | read-out | dose | value |
|---|---|---|---|---|
| COc1ccc(-c2ccc(Cl)cc2)c(-c2ccc3cc(-c4nc5cc(C(=O)O)ccc5n4C4CC56CCC5CCC46)ccc3n2)c1 | NS5B polymerase | inhibition | 33 µM | 101% |
| O=C(O)c1ccc2c(c1)nc(-c1ccc3nc(-c4ccccc4)cc(Oc4ccc5ccc(O)cc5c4)c3c1)n2C1CCCCC1 | NS5B polymerase | inhibition | 33 µM | 100% |
| COc1ccccc1-c1cc(-c2ccccc2Cl)n2nc(C(=O)O)cc2n1 | RNA-dependent RNA polymerase | IC50 | - | >10 µM |